# Measurements taken from PubChem BioAssay AID912 (National Center for Advancing Translational Sciences (NCATS), 2007).
# Several values for one entry are separate records, joined by “and”; a condition that tells them apart may be missing. Equal entries are not always repeated. The list shows a part of the results, in another mix than the full data. Records with an inconclusive call do not appear. Activity calls are given as the source filed them. Calls follow the shape of the full dose curve.
# Test: qHTS Assay for Anthrax Lethal Toxin Internalization; also: nearly all actives have a fitted effect of over 50% in size
# Settings: Cells, FRET ratio (460/530)
# [1] = at 40 µM (top of the series) unless noted
# % is scaled to controls: 0 for no effect and ±100 for the full control effect.
smiles,measurement,setting,value
O=P1(Nc2ncccn2)COc2ccccc2OC1,"activity change, negative = inhibition",[1],inactive: 10%
O=P1(Nc2ccc(Br)cn2)COc2ccccc2OC1,"activity change, negative = inhibition",[1],inactive: -12%
Cc1nn(-c2ccccc2)c2c1P(=O)(N1CCOCC1)N(C)C(c1ccccc1)=N2 (centres undefined),"activity change, negative = inhibition",[1],inactive: 11.5%
CN(C(=O)Cc1ccc(Cl)c(Cl)c1)[C@@H]1CCCC[C@H]1N1CCCC1,"activity change, negative = inhibition",[1],inactive: -5.67% and inactive: -22% and inactive: -6.25%
Cc1nc2ccc3ccccc3c2s1.O=[N+]([O-])c1cc([N+](=O)[O-])c(O)c([N+](=O)[O-])c1,"activity change, negative = inhibition",[1],inactive: -14.2%
O=P1(Nc2ccccn2)COc2ccccc2OC1,"activity change, negative = inhibition",[1],inactive: -4%
CN(CCCl)Cc1cc(Cl)c(NC2=NCCN2)c(Cl)c1,"activity change, negative = inhibition",[1],inactive: -8.29%
Clc1n[nH]nc1-c1nn[nH][15n]1,"activity change, negative = inhibition",[1],inactive: 2.14%
O=C(CC(=O)c1ccccc1)O[C@H]1CN2CCC1CC2,"activity change, negative = inhibition",[1],inactive: 11.3% [at 8 µM]
NS(=O)(=O)Cc1ccc([As](=O)(O)O)cc1,"activity change, negative = inhibition",[1],inactive: -3.73% [at 8 µM]
Cc1ccc(C)c(NP(C)(=O)Oc2ccccc2)c1 (centres undefined),"activity change, negative = inhibition",[1],inactive: -9.34%
CN(C(=O)Cc1ccc(Cl)c(Cl)c1)[C@@H]1CC[C@@]2(CCCO2)C[C@H]1N1CCCC1,"activity change, negative = inhibition",[1],inactive: -9.52%
NC(=O)Nc1ccc([As](=O)(O)O)cc1,"activity change, negative = inhibition",at 3.58 µM (top of the series),inactive: -9.08%
same,"activity change, negative = inhibition",at 40 µM (top of the series),inactive: -7.57%
CCOP1(=S)c2c(C)nn(CCC#N)c2N=C(c2ccc(F)cc2)N1C (centres undefined),"activity change, negative = inhibition",[1],inactive: -9.2%
Cc1ccc([N+](=O)[O-])cc1[N+](=O)[O-],"activity change, negative = inhibition",[1],inactive: -6.67%
CCOP1(=S)c2c(C)nn(CCC#N)c2N=C(c2ccccc2F)N1C (centres undefined),"activity change, negative = inhibition",[1],inactive: -11%
O=[As](O)(O)c1ccc([As](=O)(O)O)cc1,"activity change, negative = inhibition",[1],inactive: -10.2% [at 8 µM]
Cc1ccc(NP(C)(=O)Oc2ccccc2)c(C)c1 (centres undefined),"activity change, negative = inhibition",[1],inactive: -3.36%
COc1ccccc1OP(C)(=O)Nc1ccc(C)cc1 (centres undefined),"activity change, negative = inhibition",[1],inactive: -5.08%
O=C(OC1CN2CCC1CC2)C12CC3CC(CC(C3)C1)C2 (centres undefined),"activity change, negative = inhibition",[1],inactive: -18.7%
NC(=O)Nc1cc([As](=O)(O)O)cc(I)c1O,"activity change, negative = inhibition",[1],inactive: -6.26% [at 8 µM]
CCOP(C)(=S)SCC(=O)NC(C)C(=O)O (centres undefined),"activity change, negative = inhibition",[1],inactive: -4.71%
COP1(=S)c2c(C)nn(CCC#N)c2N=C(c2ccc(F)cc2)N1C (centres undefined),"activity change, negative = inhibition",[1],inactive: -12.3%
O=C(O)[C@@H](O)c1ccc([As](=O)(O)O)cc1,"activity change, negative = inhibition",[1],inactive: 0.818% [at 8 µM]
O=C(COc1ccccc1)OC1CN2CCC1CC2 (centres undefined),"activity change, negative = inhibition",[1],inactive: -19.2%
CP(=O)(NC(=O)Nc1ccccc1)Oc1ccccc1 (centres undefined),"activity change, negative = inhibition",[1],inactive: -3.51%
CP(=S)(Nn1cnnc1)Oc1ccccc1 (centres undefined),"activity change, negative = inhibition",[1],inactive: 2.56%
N1=C(c2nnc(-c3nn[nH]n3)nn2)NNN1,"activity change, negative = inhibition",[1],inactive: -6% [at 8 µM]
C/C1=C2N=C(/C=C3N=C(/C(C)=C4\[N-][C@@](C)([C@H]5N=C1[C@@](C)(CCC(=O)NC[C@H](C)OP(=O)([O-])O[C@@H]1[C@H](O)[C@H](n6cnc7cc(C)c(C)cc76)O[C@@H]1CO)[C@@H]5CC(N)=O)[C@](C)(CC(N)=O)[C@H]4CCC(N)=O)[C@@](C)(CC(N)=O)[C@@H]\3CCC(N)=O)C(C)(C)[C@@H]/2CCC(N)=O.[C-]#N.[Co+3],"activity change, negative = inhibition",[1],inactive: 0.989% [at 3.58 µM]
CN(C(=O)Cc1ccccc1)[C@@H]1CC[C@@]2(CCCO2)C[C@H]1N1CCCC1,"activity change, negative = inhibition",[1],inactive: 7.51%
N#[O+].[C-]#N.[C-]#N.[C-]#N.[C-]#N.[C-]#N.[Fe+2].[Na+].[Na+],"activity change, negative = inhibition",[1],inactive: 6.09%
COc1ccccc1OP(C)(=O)Nc1c(C)n(C)n(-c2ccccc2)c1=O (centres undefined),"activity change, negative = inhibition",[1],inactive: -8.35%
NCC[C@@H](N)CSP(=O)(O)O,"activity change, negative = inhibition",[1],inactive: -10.8% [at 8 µM]
CP(=O)(Nc1ccccn1)Oc1ccccc1 (centres undefined),"activity change, negative = inhibition",[1],inactive: -4.45%
O=[N+]([O-])c1ccc(C[As](=O)(O)O)cc1,"activity change, negative = inhibition",[1],inactive: 1.97% [at 8 µM]
[N-]=[N+]=NCC(O)CN=[N+]=[N-] (centres undefined),"activity change, negative = inhibition",[1],inactive: -4.66% [at 8 µM]
C(Cc1nn[nH]n1)c1nn[nH]n1,"activity change, negative = inhibition",[1],inactive: 8.03% [at 8 µM]
CN(C(=O)Cc1ccc(Cl)c(Cl)c1)[C@H]1CCCC[C@@H]1N1CCCC1,"activity change, negative = inhibition",[1],inactive: -14.6% and inactive: -15.4%
COc1ccccc1OP(C)(=O)Nc1ccc(C)c(C)c1 (centres undefined),"activity change, negative = inhibition",[1],inactive: -16.4%
COC(=O)c1cc2c(s1)N=C(c1ccccc1)N(C)P2(=O)N1CCOCC1 (centres undefined),"activity change, negative = inhibition",[1],inactive: 0.621%
Cc1cccc([N+](=O)[O-])c1[N+](=O)[O-],"activity change, negative = inhibition",[1],inactive: 13.4%
CCC(C)(OO)OOC(C)(CC)OO (centres undefined),"activity change, negative = inhibition",[1],inactive: -3.33%
O=P1(Nc2nc3ccc(Cl)cc3s2)COc2ccccc2O1 (centres undefined),"activity change, negative = inhibition",[1],inactive: -5.87%
CP(=O)(Nc1ccccc1F)Oc1ccccc1 (centres undefined),"activity change, negative = inhibition",[1],inactive: 8.63%
CP(=O)(Nc1ccc2c(c1)OCCO2)Oc1ccccc1 (centres undefined),"activity change, negative = inhibition",[1],inactive: 16.1%
NNC(NN)NN.n1nc(-c2nn[nH]n2)n[nH]1,"activity change, negative = inhibition",[1],inactive: 4.61% [at 8 µM]
C[C@@H](O)COc1ccc([As](=O)(O)O)cc1N,"activity change, negative = inhibition",[1],inactive: 7.22% [at 8 µM]
Cc1ccccc1NP(C)(=O)Nc1ccccc1C,"activity change, negative = inhibition",[1],inactive: -7.77%
O=P(Nc1nccs1)(c1ccccc1)c1ccccc1,"activity change, negative = inhibition",[1],inactive: 5.91%
CCOP(=O)(CC)OCC,"activity change, negative = inhibition",[1],inactive: 8.68%
c1nnnn1CCn1cnnn1,"activity change, negative = inhibition",[1],inactive: 12.2%
CCOP(C)(=S)SCC(=O)NC(C)(CC)C(=O)O (centres undefined),"activity change, negative = inhibition",[1],inactive: 7.68%
Cc1ccc([N+](=O)[O-])c([N+](=O)[O-])c1,"activity change, negative = inhibition",[1],inactive: 18.4%
Cc1c([N+](=O)[O-])cccc1[N+](=O)[O-],"activity change, negative = inhibition",[1],inactive: 7.01%
O=C(OC1CN2CCC1CC2)c1cccc(Cl)c1 (centres undefined),"activity change, negative = inhibition",[1],inactive: -13.3%
[N-]=[N+]=Nc1ccc([As](=O)(O)O)cc1,"activity change, negative = inhibition",[1],inactive: -0.571% [at 8 µM]
Cc1cc([N+](=O)[O-])cc([N+](=O)[O-])c1O,"activity change, negative = inhibition",[1],inactive: -3.98%
CN(C)CCOC(=O)C(O)(c1ccccc1)C1CCCCC1 (centres undefined),"activity change, negative = inhibition",[1],inactive: -8.26%
